Pooled drug test results. Numbers come from NIAID ChemDB, via PubChem.

Shared fields: toxicity to cultured cells; cells: CEM; endpoint: CC50

CCn is the concentration with n% toxicity to the cells.

O=C(NCc1ccc2c(c1)OCO2)c1cc2cc3c(cc2[nH]1)OCO3 ; read by: XTT ; value: >200 µM
COC(=O)[C@H](C)NP(=O)(OC[C@@H]1C=C[C@H](n2cc(CC(=O)NCCCCCCCCCCNC(=O)C(F)(F)F)c(=O)[nH]c2=O)O1)Oc1ccccc1 ; read by: MTT ; value: >10 µM
CCc1c(Sc2cc(C)cc(C)c2)n(COCc2ccccc2)c(=S)[nH]c1=O ; value: ≥100 µM
COc1ccccc1C(=S)Nc1ccc(Cl)c(C(=O)OC(C)C)c1 ; value: 14 µM
Nc1ccn([C@@H]2C=C(F)[C@H](CO)O2)c(=O)n1 ; value: >100 µM
O=C(c1cccc(F)c1)c1ccc2c(c1)oc(=O)n2CCN1CCOCC1 ; value: 20 µg/mL
Cc1ccc(C)c(CS(=O)c2ccc(Cl)c[n+]2[O-])c1 ; value: 31 µg/mL
O=C(NCCCNC(=O)c1cc2cc(O)c(O)cc2[nH]1)c1cc2cc(O)c(O)cc2[nH]1 ; read by: XTT ; value: 3.6 µM
[N-]=[N+]=N[C@H]1C[C@H](n2cnc3c(Cl)nc(F)nc32)O[C@@H]1CO ; read by: MTS ; value: 13.3 µM
Cc1ccsc1C(=O)Nc1ccc(Cl)c(C(=O)OC2CCCCC2)c1 ; value: 17 µM
[N-]=[N+]=N[C@H]1C[C@H](n2cnc3c(N)nc(Cl)nc32)O[C@@H]1CO ; read by: MTS ; value: >100 µM
O=C(CN1c2c(-c3ccccc3)n[nH]c2-c2ccccc2S1(=O)=O)N/N=C/c1cccc(Cl)c1 ; value: 3.7 µM
COc1nc(N)c2ncn([C@H]3C[C@H](N=[N+]=[N-])[C@@H](CO)O3)c2n1 ; read by: MTS ; value: >100 µM
Nc1nc2c(ncn2[C@H]2C=C(F)[C@@H](CO)O2)c(=O)[nH]1 ; value: >100 µM
Cc1cn([C@H]2C[C@H](N=[N+]=[N-])[C@@H](CO)O2)c(=O)[nH]c1=O ; read by: MTT ; value: >1 µM
Nc1ncnc2c1ncn2[C@@H]1OC[C@H](CCP(=O)(O)O)C12CC2 ; value: >100 µM
O=C(c1cccc(Cl)c1)c1ccc2[nH]c(=O)oc2c1 ; value: 16 µg/mL
O=C(CN1c2c(-c3ccccc3)n[nH]c2-c2ccccc2S1(=O)=O)N/N=C/c1c(Cl)cccc1Cl ; value: <1 µM
O=C1CSC(C23CC4CC(CC(C4)C2)C3)N1c1ccccn1 ; value: 318 µM
O=C(NCc1ccccc1)c1cc2cc3c(cc2[nH]1)OCO3 ; read by: XTT ; value: >200 µM
O=C(c1cccc(Br)c1)c1ccc2[nH]c(=O)oc2c1 ; value: 18 µg/mL
O=c1ccn([C@H]2O[C@@H](CO)[C@H](O)C2(F)F)c(=O)[nH]1 ; value: >100 µM
O=C(NCCCNC(=O)c1cc2cc3c(cc2[nH]1)OCO3)c1cc2cc3c(cc2[nH]1)OCO3 ; read by: XTT ; value: >200 µM
Nc1nc(=O)n([C@H]2O[C@@H](CO)[C@H](O)C2(F)F)cc1F ; value: >100 µM
CCOCn1c(Sc2ccccc2)c(CC)c(=O)[nH]c1=S ; value: 68.4 µM
O=C(CN1c2c(-c3ccccc3)n[nH]c2-c2ccccc2S1(=O)=O)N/N=C/c1ccc(Cl)cc1 ; value: 11.9 µM
Cc1cn([C@H]2C=C[C@@H](OCP(=O)(O)O)O2)c(=O)[nH]c1=O ; value: >100 µg/mL
CC(C)C[C@H](C(=O)N[C@H]1C(=O)N[C@@H](CC(N)=O)C(=O)N[C@H]2C(=O)N[C@H]3C(=O)N[C@H](C(=O)N[C@H](C(=O)O)c4cc(O)c(CN5CCN(Cc6ccc(-c7ccccc7)cc6)CC5)c(O)c4-c4cc3ccc4O)[C@H](O)c3ccc(cc3)Oc3cc2cc(c3O)Oc2ccc(cc2Cl)[C@H]1O)N(C)C(=O)OC(C)(C)C ; read by: cell count ; value: >100 µM
CC(C)OC(=O)c1cc(NC(=S)c2ccsc2)ccc1Cl ; value: 17 µM
CC(C)c1c(Sc2ccccc2)n(COCCO)c(=S)[nH]c1=O ; value: >100 µM
Cc1ccc(C)c(CS(=O)(=O)c2cccc[n+]2[O-])c1 ; value: 31 µg/mL
O=c1ccn([C@@H]2C=C(F)[C@H](CO)O2)c(=O)[nH]1 ; value: >100 µM
CCc1c(Sc2cc(C)cc(C)c2)n(COCCO)c(=S)[nH]c1=O ; value: >100 µM
CC(C)OC(=O)c1cc(NC(=S)c2ccco2)ccc1Cl ; value: 19 µM
Nc1nc(=O)n([C@H]2C=C[C@@H](OCP(=O)(O)O)O2)cc1I ; value: >100 µg/mL
Cc1ccsc1C(=S)Nc1ccc(Cl)c(C(=O)OC(C)C)c1 ; value: 45 µM
COC(=O)[C@H]1NC(=O)[C@H]2NC(=O)[C@H](NC(=O)[C@@H]3NC(=O)[C@H]4NC(=O)[C@H](NC(=O)[C@H](N)c5ccc(O)c(c5)Oc5cc4cc(O)c5C)[C@H](O)c4ccc(cc4)Oc4cc3cc(c4O)Oc3ccc(cc3)[C@H]2O)c2ccc(O)c(c2)-c2c(O)cc(O)cc21 ; read by: cell count ; value: >100 µM
COc1ccc(CCNC(=O)c2cc3cc4c(cc3[nH]2)OCO4)cc1OC ; read by: XTT ; value: >200 µM
O=c1[nH]c(=O)n([C@H]2O[C@@H](CO)[C@H](O)C2(F)F)cc1Cl ; value: >100 µM
CCc1c(Sc2cc(C)cc(C)c2)n(COCCO)c(=O)[nH]c1=O ; value: >100 µM
COc1ccc(/C=N/NC(=O)CN2c3c(-c4ccccc4)n[nH]c3-c3ccccc3S2(=O)=O)c(OC)c1 ; value: 17.5 µM
NCCCc1cn([C@H]2C=C[C@@H](CO)O2)c(=O)[nH]c1=O ; read by: MTT ; value: 630 µM
Cc1occc1C(=S)Nc1ccc(Cl)c(OC(=O)OC(C)C)c1 ; value: 75 µM
COC(=O)[C@H](C)NP(=O)(OC[C@H]1C=C[C@@H](n2cc(CC(=O)NCCCCCCCCCCCCNC(=O)C(F)(F)F)c(=O)[nH]c2=O)O1)Oc1ccccc1 ; read by: MTT ; value: >10 µM
Cc1cc(C)cc(Cc2c(C(C)C)c(=O)[nH]c(=O)n2COCCO)c1 ; value: >100 µM
O=C(NCCCCNC(=O)c1cc2cc(O)c(O)cc2[nH]1)c1cc2cc(O)c(O)cc2[nH]1 ; read by: XTT ; value: 26 µM
CC(C)c1c(Sc2ccccc2)n(COCc2ccccc2)c(=S)[nH]c1=O ; value: >100 µM
Cc1cn([C@H]2C=C(F)[C@@H](CO)O2)c(=O)[nH]c1=O ; value: >100 µM
O=C(Cc1cn([C@H]2C=C[C@@H](CO)O2)c(=O)[nH]c1=O)NCCCCCCCCNC(=O)c1c2ccccc2nc2ccccc12 ; read by: MTT ; value: >10 µM
COc1ccc(C)cc1CS(=O)(=O)c1cccc[n+]1[O-] ; value: 70 µg/mL
CC(C)OC(=O)c1cc(NC(=S)c2ccccc2N)ccc1Cl ; value: 13 µM
COC(=O)[C@H](C)NP(=O)(OC[C@@H]1C=C[C@H](n2cc(CC(=O)NCCCCCCNC(=O)C(F)(F)F)c(=O)[nH]c2=O)O1)Oc1ccccc1 ; read by: MTT ; value: >10 µM
CC(C)(C)OC(=O)N[C@H]1C(=O)N[C@@H]2Cc3ccc(c(Cl)c3)Oc3cc4cc(c3O)Oc3ccc(cc3Cl)[C@@H](O)[C@@H]3NC(=O)[C@H](NC(=O)[C@@H]4NC(=O)[C@@H](NC2=O)c2cc(O)cc(c2)Oc2cc1ccc2O)c1ccc(O)c(c1)-c1c(O)cc(O)cc1[C@@H](C(=O)O)NC3=O ; read by: cell count ; value: >250 µM
O=c1[nH]cnc2c1ncn2[C@@H]1O[C@@H](CO)[C@H](O)C1(F)F ; value: >100 µM
CN(C)c1cccc(C(=O)c2ccc3[nH]c(=O)oc3c2)c1 ; value: 28 µg/mL
C/C=C/COc1cc(NC(=S)c2ccn(C)c2C)ccc1Cl ; value: 12 µM
Nc1nc2c(ncn2[C@@H]2OC[C@H](CCP(=O)(O)O)C23CC3)c(=O)[nH]1 ; value: >100 µM
Cc1cn([C@@H]2O[C@@H](CO)[C@H](O)C2(F)F)c(=O)[nH]c1=O ; value: >100 µM
O=C(Nc1ccc(Cl)c(C(=O)OC2CCCCC2)c1)c1ccccc1F ; value: 84 µM
Nc1nc2c(ncn2[C@H]2O[C@@H](CO)[C@H](O)C2(F)F)c(=O)[nH]1 ; value: >100 µM
O=C(NCCc1ccc(O)c(O)c1)c1cc2cc(O)c(O)cc2[nH]1 ; read by: XTT ; value: 10 µM
C=Cc1cn([C@H]2C=C[C@@H](OCP(=O)(O)O)O2)c(=O)[nH]c1=O ; value: 96 µg/mL
O=C(NCCCCNC(=O)c1cc2cc3c(cc2[nH]1)OCO3)c1cc2cc3c(cc2[nH]1)OCO3 ; read by: XTT ; value: >200 µM
O=C(CN1c2c(-c3ccccc3)n[nH]c2-c2ccccc2S1(=O)=O)N/N=C/c1ccccc1[N+](=O)[O-] ; value: 2 µM
Nc1nc(=O)n([C@@H]2O[C@@H](CO)[C@H](O)C2(F)F)cc1F ; value: >100 µM

The last 10 rows once more:

structure | read by | value
C/C=C/COc1cc(NC(=S)c2ccn(C)c2C)ccc1Cl | - | 12 µM
Nc1nc2c(ncn2[C@@H]2OC[C@H](CCP(=O)(O)O)C23CC3)c(=O)[nH]1 | - | >100 µM
Cc1cn([C@@H]2O[C@@H](CO)[C@H](O)C2(F)F)c(=O)[nH]c1=O | - | >100 µM
O=C(Nc1ccc(Cl)c(C(=O)OC2CCCCC2)c1)c1ccccc1F | - | 84 µM
Nc1nc2c(ncn2[C@H]2O[C@@H](CO)[C@H](O)C2(F)F)c(=O)[nH]1 | - | >100 µM
O=C(NCCc1ccc(O)c(O)c1)c1cc2cc(O)c(O)cc2[nH]1 | XTT | 10 µM
C=Cc1cn([C@H]2C=C[C@@H](OCP(=O)(O)O)O2)c(=O)[nH]c1=O | - | 96 µg/mL
O=C(NCCCCNC(=O)c1cc2cc3c(cc2[nH]1)OCO3)c1cc2cc3c(cc2[nH]1)OCO3 | XTT | >200 µM
O=C(CN1c2c(-c3ccccc3)n[nH]c2-c2ccccc2S1(=O)=O)N/N=C/c1ccccc1[N+](=O)[O-] | - | 2 µM
Nc1nc(=O)n([C@@H]2O[C@@H](CO)[C@H](O)C2(F)F)cc1F | - | >100 µM

An empty or dashed field is not shown. Rows are shuffled and stem from different studies.